# Results from patent US6482802B1 (Endowment for Research in Human Biology, Inc., priority 1998, dated 2002).
# Test system: nuclear translocation of 125I-angiogenin in HUVE cells
# Experiment: Nuclear translocation of 125I-angiogenin in HUVE cells
# Settings: inhibitor 10 μM, 125I-angiogenin 1 μg/ml 30 min
compound,measurement,setting,value
O=[As]c1ccccc1 (centres unmarked),Nuclear 125I-angiogenin,"37° C. 30 min, control 3090 ± 260",3040 ± 70 cpm
same,% inhibition of nuclear translocation of angiogenin,,0%
